Compound potency records, mixed from different reports. Data source: NIAID ChemDB in PubChem.

Shared fields: enzyme or target tests

ICn is the concentration giving n% inhibition. Conditions beyond the fields shown may differ between rows. Two numbers with a dash give a range or band. Inhibition is in % at the dose shown (toxicity tests: loss of growth or viability).

O=C(NCCc1ccccc1F)Nc1cscc1-c1nc(C(=O)O)c(O)c(=O)[nH]1 ; endpoint: IC50 ; protein: HCV polymerase ; agent: Hepatitis C virus ; value: <25 µM
CSc1ncc(C(=O)N2CCN(CCO)CC2)c(Nc2ccc3cn[nH]c3c2)n1 ; endpoint: IC50 ; protein: Reverse transcription ; agent: Hepatitis B virus ; value: <1 µg/mL
O=C(O)[C@H](Cc1ccccc1)N(Cc1ccc(-c2ccc(Cl)c(F)c2)o1)C(=O)c1ccc(Cl)cc1Cl ; endpoint: IC50 ; protein: RNA-dependent RNA polymerase ; agent: Hepatitis C virus ; value: <5 µM
CSc1ncc(C(=O)NN2CCN(C)CC2)c(Nc2ccc3[nH]ncc3c2)n1 ; endpoint: IC50 ; protein: Reverse transcription ; agent: Hepatitis B virus ; value: ~0.1 µg/mL
COc1cc(C)c(S(=O)(=O)N(Cc2cccc(-c3cc4ccccc4o3)c2)[C@H](Cc2ccccc2)C(=O)O)c(C)c1C ; endpoint: IC50 ; protein: Nonstructural protein 3 NTPase/helicase ; agent: Hepatitis C virus ; method: HPLC ; value: >20 µM
CC[C@H](NC(=O)[C@@H](NC(=O)[C@@H](NC(=O)[C@H](CC(C)C)NC(=O)[C@@H](CCC(=O)O)NC(=O)[C@H](CC(=O)O)NC(C)=O)[C@@H](C)CC)C1CCCCC1)C(=O)/C=C/c1ccccc1 ; endpoint: inhibition ; protein: HCV NS3 protease ; agent: Hepatitis C virus ; dose: 1 µM ; value: 58%
O=C(O)/C=C/c1ccc(NC(=O)C2(NC(=O)c3ccc4c(c3)nc(-c3ccc[nH]3)n4C3CCCC3)CCCC2)cc1 ; endpoint: IC50 ; protein: NS5B polymerase ; agent: Hepatitis C virus ; value: 0.5–5 µM
O=C(NCc1cccc(Cl)c1Cl)Nc1ccccc1-c1nc(C(=O)O)c(O)c(=O)[nH]1 ; endpoint: IC50 ; protein: HCV polymerase ; agent: Hepatitis C virus ; value: <100 µM
O=C(O)C(Cc1ccccc1)N(Cc1sc(Br)cc1Br)C(=O)c1ccc(Cl)cc1I ; endpoint: IC50 ; protein: RNA-dependent RNA polymerase ; agent: Hepatitis C virus ; value: <5 µM
O=C(Nc1cscc1-c1nc(C(=O)O)c(O)c(=O)[nH]1)Nc1cccc(Cl)c1Cl ; endpoint: IC50 ; protein: HCV polymerase ; agent: Hepatitis C virus ; value: <25 µM
O=C(O)[C@@H](Cc1ccccc1)N(Cc1ccc(-c2ccccc2C(F)(F)F)o1)C(=O)c1cccc([N+](=O)[O-])c1 ; endpoint: IC50 ; protein: Nonstructural protein 3 NTPase/helicase ; agent: Hepatitis C virus ; method: HPLC ; value: <5 µM
COc1nc(Nc2ccc3[nH]ncc3c2)nc(NN2CCOCC2)n1 ; endpoint: inhibition ; protein: DNA polymerase ; agent: Hepatitis B virus ; dose: 0.1 µg/mL ; value: 31%
O=C(NC1(C(=O)Nc2ccc3c(c2)cc(C(=O)O)n3Cc2ccccc2)CCCC1)c1ccc2c(c1)nc(-c1ccoc1)n2C1CCCCC1 ; endpoint: IC50 ; protein: NS5B polymerase ; agent: Hepatitis C virus ; value: 0.5–5 µM
O=C(O)[C@@H](Cc1ccccc1)N(Cc1ccco1)C(=O)c1ccc(Cl)cc1Cl ; endpoint: IC50 ; protein: RNA-dependent RNA polymerase ; agent: Hepatitis C virus ; value: 5–20 µM
COc1csc(-c2nc(C(=O)O)c(O)c(=O)[nH]2)c1 ; endpoint: IC50 ; protein: HCV polymerase ; agent: Hepatitis C virus ; value: <25 µM
COC(=O)[C@@H]1CCCN1c1nc(Nc2ccc3cn[nH]c3c2)nc(OC)n1 ; endpoint: inhibition ; protein: Nonstructural protein 5B ; agent: Hepatitis C virus ; dose: 10 µg/mL ; value: 42%
O=C(Cc1cn(Cc2ccccc2)c2ccccc12)Nc1ccsc1-c1nc(C(=O)O)c(O)c(=O)[nH]1 ; endpoint: IC50 ; protein: HCV polymerase ; agent: Hepatitis C virus ; value: <25 µM
CNC(=O)c1c(-c2ccc(F)cc2)oc2cc(C3CCCN3S(C)(=O)=O)c(OC)cc12 ; endpoint: IC50 ; protein: Nonstructural protein 5B ; agent: Hepatitis C virus ; value: ≤0.5 µM
O=C(O)C(Cc1ccccc1)N(Cc1cc(-c2ccc(Cl)c(F)c2)cs1)C(=O)c1ccc(Cl)cc1Cl ; endpoint: IC50 ; protein: RNA-dependent RNA polymerase ; agent: Hepatitis C virus ; value: <5 µM
CCN(CC)c1cc2oc(-c3ccc(F)cc3)c(C(=O)NC)c2cc1OC(C)C ; endpoint: IC50 ; protein: Nonstructural protein 5B ; agent: Hepatitis C virus ; value: ≤0.5 µM
C[C@H]1CCC[C@H](C)C1n1c(-c2ccccc2)nc2cc(C(=O)NC3(C(=O)Nc4ccc(/C=C/C(=O)O)cc4)CCCC3)ccc21 ; endpoint: IC50 ; protein: NS5B polymerase ; agent: Hepatitis C virus ; value: 0.5–5 µM
CNC(=O)c1c(-c2ccc(F)cc2)oc2cc(N(CC(F)(F)F)S(C)(=O)=O)c(OC)cc12 ; endpoint: IC50 ; protein: Nonstructural protein 5B ; agent: Hepatitis C virus ; value: ≤0.5 µM
CSc1ncc(C(=O)NCCN2CCOCC2)c(Nc2ccc3[nH]ncc3c2)n1 ; endpoint: IC50 ; protein: Reverse transcription ; agent: Hepatitis B virus ; value: <1 µg/mL
O=C(O)C(Cc1ccccc1)N(Cc1cc(-c2ccncc2)cs1)C(=O)c1ccc(Cl)cc1Cl ; endpoint: IC50 ; protein: RNA-dependent RNA polymerase ; agent: Hepatitis C virus ; value: <5 µM
CC[C@H](NC(=O)[C@@H](NC(=O)[C@@H](NC(=O)[C@H](CC(C)C)NC(=O)[C@@H](CCC(=O)O)NC(=O)[C@H](CC(=O)O)NC(C)=O)[C@@H](C)CC)C1CCCCC1)C(=O)CCc1nccs1 ; endpoint: inhibition ; protein: HCV NS3 protease ; agent: Hepatitis C virus ; dose: 10 µM ; value: 64%
COC(=O)c1nc(-c2ccc(OCc3c(Cl)sc4ccc(Cl)cc34)cc2)[nH]c(=O)c1O ; endpoint: IC50 ; protein: HCV polymerase ; agent: Hepatitis C virus ; value: <50 µM
CCCN(C(=O)c1ccc(Cl)cc1Cl)[C@@H](Cc1ccccc1)C(=O)O ; endpoint: IC50 ; protein: RNA-dependent RNA polymerase ; agent: Hepatitis C virus ; value: >20 µM
C/C=C/C(=O)[C@H](CC)NC(=O)[C@@H](NC(=O)[C@@H](NC(=O)[C@H](CC(C)C)NC(=O)[C@@H](CCC(=O)O)NC(=O)[C@H](CC(=O)O)NC(C)=O)[C@@H](C)CC)C1CCCCC1 ; endpoint: inhibition ; protein: HCV NS3 protease ; agent: Hepatitis C virus ; dose: 1 µM ; value: 54%
O=C(NC1(C(=O)Nc2ccc(-c3ccc(C(=O)O)o3)cc2)CCCC1)c1ccc2c(c1)nc(-c1ccoc1)n2C1CCCCC1 ; endpoint: IC50 ; protein: NS5B polymerase ; agent: Hepatitis C virus ; value: <0.5 µM
COc1nc(Nc2ccc3[nH]ncc3c2)nc(N2CCCC2)n1 ; endpoint: IC50 ; protein: DNA polymerase ; agent: Hepatitis B virus ; value: 0.1–1 µg/mL
CC(NC(=O)c1ccc2c(c1)nc(-c1ccoc1)n2C1CCCCC1)C(=O)Nc1ccc(C(C)C(=O)O)cc1 ; endpoint: IC50 ; protein: NS5B polymerase ; agent: Hepatitis C virus ; value: 0.5–5 µM
CSc1ncc(C(=O)NN2CCN(C)CC2)c(Nc2ccc3cn[nH]c3c2)n1 ; endpoint: IC50 ; protein: Reverse transcription ; agent: Hepatitis B virus ; value: <1 µg/mL
CC[C@H](NC(=O)[C@@H](NC(=O)[C@@H](NC(=O)[C@H](CC(C)C)NC(=O)[C@@H](CCC(=O)O)NC(=O)[C@H](CC(=O)O)NC(C)=O)[C@@H](C)CC)C1CCCCC1)C(O)/C=C/c1ccc(OC)cc1 ; endpoint: inhibition ; protein: HCV NS3 protease ; agent: Hepatitis C virus ; dose: 10 µM ; value: 7%
Cn1c(C(=O)O)cc2cc(NC(=O)C3(NC(=O)c4ccc5c(c4)nc(-c4ccoc4)n5C4CCCCC4)CCNCC3)ccc21 ; endpoint: IC50 ; protein: NS5B polymerase ; agent: Hepatitis C virus ; value: <0.5 µM
COc1nc(NCCO)nc(Nc2ccc3[nH]ncc3c2)n1 ; endpoint: inhibition ; protein: DNA polymerase ; agent: Hepatitis B virus ; dose: 0.1 µg/mL ; value: 34%
CNC(=O)c1c(-c2ccc(F)cc2)oc2cc(N(C)S(C)(=O)=O)c(OC)cc12 ; endpoint: IC50 ; protein: Nonstructural protein 5B ; agent: Hepatitis C virus ; value: ≤0.5 µM
CC[C@H](NC(=O)[C@@H](NC(=O)[C@@H](NC(=O)[C@H](CC(C)C)NC(=O)[C@@H](CCC(=O)O)NC(=O)[C@H](CC(=O)O)NC(C)=O)[C@@H](C)CC)C1CCCCC1)C(=O)/C=C/c1ccc(OC)cc1 ; endpoint: inhibition ; protein: HCV NS3 protease ; agent: Hepatitis C virus ; dose: 10 µM ; value: 100%
Cc1cccc(CNC(=O)Nc2ccccc2-c2nc(C(=O)O)c(O)c(=O)[nH]2)c1 ; endpoint: IC50 ; protein: HCV polymerase ; agent: Hepatitis C virus ; value: <100 µM
COc1nc(Nc2ccc3[nH]ncc3c2)nc(NN2CCN(C)CC2)n1 ; endpoint: inhibition ; protein: Nonstructural protein 5B ; agent: Hepatitis C virus ; dose: 1 µg/mL ; value: 29%
CCC[C@]1(CC(=O)O)OCCc2c1[nH]c1c(C)ccc(C#N)c21 ; strain: 9606 genotype 1A ; endpoint: IC50 ; protein: NS5B polymerase ; agent: Hepatitis C virus ; value: 4.8 µM
O=C(O)[C@H](Cc1ccccc1)N(Cc1cnc(N2CCN(Cc3ccccc3)CC2)s1)C(=O)c1ccc(Cl)cc1Cl ; endpoint: IC50 ; protein: RNA-dependent RNA polymerase ; agent: Hepatitis C virus ; value: <5 µM
CC/C(=C\c1cccc(NC(=O)C(C)NC(=O)c2ccc3c(c2)nc(-c2ccoc2)n3C2CCCCC2)c1)C(=O)O ; endpoint: IC50 ; protein: NS5B polymerase ; agent: Hepatitis C virus ; value: 0.5–5 µM
CSc1ncc(C(=O)NCCN(C)C)c(Nc2ccc3cn[nH]c3c2)n1 ; endpoint: IC50 ; protein: Reverse transcription ; agent: Hepatitis B virus ; value: <0.01 µg/mL

A second listing of 5 rows from above:

{"smiles": "CC/C(=C\\c1cccc(NC(=O)C(C)NC(=O)c2ccc3c(c2)nc(-c2ccoc2)n3C2CCCCC2)c1)C(=O)O", "endpoint": "IC50", "protein": "NS5B polymerase", "agent": "Hepatitis C virus", "value": "0.5–5 µM"}
{"smiles": "O=C(Cc1cn(Cc2ccccc2)c2ccccc12)Nc1ccsc1-c1nc(C(=O)O)c(O)c(=O)[nH]1", "endpoint": "IC50", "protein": "HCV polymerase", "agent": "Hepatitis C virus", "value": "<25 µM"}
{"smiles": "O=C(O)C(Cc1ccccc1)N(Cc1sc(Br)cc1Br)C(=O)c1ccc(Cl)cc1I", "endpoint": "IC50", "protein": "RNA-dependent RNA polymerase", "agent": "Hepatitis C virus", "value": "<5 µM"}
{"smiles": "COc1nc(NCCO)nc(Nc2ccc3[nH]ncc3c2)n1", "endpoint": "inhibition", "protein": "DNA polymerase", "agent": "Hepatitis B virus", "dose": "0.1 µg/mL", "value": "34%"}
{"smiles": "CNC(=O)c1c(-c2ccc(F)cc2)oc2cc(C3CCCN3S(C)(=O)=O)c(OC)cc12", "endpoint": "IC50", "protein": "Nonstructural protein 5B", "agent": "Hepatitis C virus", "value": "≤0.5 µM"}